Measurements: US20060229433A1, “Modified antiviral peptides with increased activity and cell membrane affinity” (priority 2003, published 2006)
pIC50: −log10 of the molar value. Several values for one entry are separate records, joined by “and”; a condition that tells them apart may be missing. Equal entries are not always repeated.

Experiments:
HIV-1 NL 4-3 = test: HIV-1 infection of C8166 cells (syncytia formation, p24 ELISA) with HIV-1 NL 4-3; format: cell-based; design: key to Day 4 syncitia formed / Day 5 syncitia formed / Day 6 syncitia formed / Day 7 syncitia formed / syncitia formed, Day 4 / syncitia formed, Day 5 / syncitia formed, Day 6 / syncitia formed, Day 7: ++, +, (+), (+)− and − represent decreasing numbers of syncitia formed; ++, +, (+), (+)− and − represent decreasing numbers of syncitia formed; ++, +, (+), (+)− and − represent decreasing numbers of syncitia formed; ++, +, (+), (+)− and − represent decreasing numbers of syncitia formed; ++, +, (+), (+)− and − represent decreasing numbers of syncitia formed; conditions: for pIC50 / syncitia formed, Day 4 / syncitia formed, Day 5 / syncitia formed, Day 6 / syncitia formed, Day 7: C8166 cells; for pIC50: HIV-1 subtype B NL 4-3; for Day 4 syncitia formed / Day 5 syncitia formed / Day 6 syncitia formed / Day 7 syncitia formed: Table 6
Method: (§1) HIV-1 NL 4-3 isolate (Adachi et al., 1986; Barré-Sinoussi et al., 1983) and highly cytopathic Zairian HIV-1 NDK isolate (Ellrodt et al., 1984) was propagated in permissive CEM cells (Nara et al., 1987). Uninfected CEM and C8166 (Salahuddin et al., 1983) were maintained in RPMI 1640 (R10) with ultraglutamine (cambrex, Vervier, Belgium), penicillin (100 U/ml), streptomycin (100 μg/ml), and 10% heat-inactivated fetal calf serum (Cambrex).
(§2) Samples of 3×10^5/100 μL C8166 cells were preincubated in 96-well microtiter plates in culture medium containing various concentrations of peptide. After a 1 h treatment at 37° C., 100 μl of diluted viral solution of HIV-1 was added. The cells were exposed to the virus for 1 h at 37° C. at a multiplicity of infection of 1000 TCID50 per ml. The cells were washed three times and cultured at 3×10^5/ml of R10 with the treatment in 24-well plates incubated at 37° C. C8166 culture medium was replaced at Day-4 post-infection. The treatment was permanent before virus adsorption, during virus adsorption and after infection. Assays on C8166 cells have been performed at least twice and in duplicate. Toxicity was evaluated by daily cell count and trypan-blue exclusion assay. Infection of C8166 T-cells with HIV-1 was assessed by virus-induced cytopathic effects (syncytia formation) and by quantification of cell free p24 viral protein in the culture supernatants. Measurements of HIV-1 p24^gag concentration in the culture supernatants were achieved by ELISA (ALLIANCE® HIV-1 p24 kit, Perkin Elmer, life sciences, USA).

HIV-1 NDK = test: HIV-1 infection of C8166 cells (syncytia formation, p24 ELISA) with HIV-1 NDK; format: cell-based; design: key to syncitia formed, Day 4 / syncitia formed, Day 5 / syncitia formed, Day 6 / syncitia formed, Day 7: ++, +, (+), (+)− and − represent decreasing numbers of syncitia formed; ++, +, (+), (+)− and − represent decreasing numbers of syncitia formed; ++, +, (+), (+)− and − represent decreasing numbers of syncitia formed; ++, +, (+), (+)− and − represent decreasing numbers of syncitia formed; ++, +, (+), (+)− and − represent decreasing numbers of syncitia formed; conditions: for P 24: P 24 after Day 7
Method: as §1, §2

**Q.** `N=C(N)NCCC[C@H](N)C(=O)N[C@@H](CCC(N)=O)C(=O)NCC(=O)N[C@@H](Cc1ccc(O)cc1)C(=O)N[C@@H](CO)C(=O)O` [RS monomer, RQGYS, reference compound] was tested. Which pIC50 (HIV-1 NL 4-3; Table 3) did it give?
**A.** 6.70

**Q.** How did the “syncitia formed, Day 4” value (HIV-1 NDK; 0.005 μM) turn out when `C[C@H](NC(=O)[C@H](CCCNC(=N)N)NC(=O)CNC(=O)[C@@H]1CCCN1C(=O)CN)C(=O)O` [GPGRA, reference compound] was run?
**A.** (+)

**Q.** And the “syncitia formed, Day 5” value (HIV-1 NDK; 0.005 μM)?
**A.** +

**Q.** And the “syncitia formed, Day 6” value (HIV-1 NDK; 0.005 μM)?
**A.** ++

**Q.** What about the “syncitia formed, Day 7” value (HIV-1 NDK; 0.005 μM) of the same molecule?
**A.** ++

**Q.** And the “syncitia formed, Day 4” value (HIV-1 NDK; 0.01 μM)?
**A.** (+)

**Q.** And the “syncitia formed, Day 5” value (HIV-1 NDK; 0.01 μM)?
**A.** +

**Q.** And the “syncitia formed, Day 6” value (HIV-1 NDK; 0.01 μM)?
**A.** ++

**Q.** And the “syncitia formed, Day 7” value (HIV-1 NDK; 0.01 μM)?
**A.** ++

**Q.** What about the “syncitia formed, Day 4” value (HIV-1 NDK; 0.05 μM) of the same molecule?
**A.** −

**Q.** And the “syncitia formed, Day 5” value (HIV-1 NDK; 0.05 μM)?
**A.** (+)

**Q.** What about the “syncitia formed, Day 6” value (HIV-1 NDK; 0.05 μM) of the same molecule?
**A.** ++

**Q.** What about the “syncitia formed, Day 7” value (HIV-1 NDK; 0.05 μM) of the same molecule?
**A.** ++

**Q.** And the “P 24” value (HIV-1 NDK; 0.05 μM)?
**A.** 13010 pg/mL and 10910 pg/mL

**Q.** What about the “syncitia formed, Day 4” value (HIV-1 NDK; 0.1 μM) of the same molecule?
**A.** −

**Q.** What about the “syncitia formed, Day 5” value (HIV-1 NDK; 0.1 μM) of the same molecule?
**A.** (+)

**Q.** And the “syncitia formed, Day 6” value (HIV-1 NDK; 0.1 μM)?
**A.** ++

**Q.** And the “syncitia formed, Day 7” value (HIV-1 NDK; 0.1 μM)?
**A.** ++

**Q.** What about the “P 24” value (HIV-1 NDK; 0.1 μM) of the same molecule?
**A.** 13840 pg/mL and 9310 pg/mL

**Q.** What about the “syncitia formed, Day 4” value (HIV-1 NDK; 0.5 μM) of the same molecule?
**A.** −

**Q.** What about the “syncitia formed, Day 5” value (HIV-1 NDK; 0.5 μM) of the same molecule?
**A.** −

**Q.** What about the “syncitia formed, Day 6” value (HIV-1 NDK; 0.5 μM) of the same molecule?
**A.** ++

**Q.** And the “syncitia formed, Day 7” value (HIV-1 NDK; 0.5 μM)?
**A.** ++

**Q.** And the “syncitia formed, Day 4” value (HIV-1 NDK; 1 μM)?
**A.** −

**Q.** And the “syncitia formed, Day 5” value (HIV-1 NDK; 1 μM)?
**A.** −

**Q.** What about the “syncitia formed, Day 6” value (HIV-1 NDK; 1 μM) of the same molecule?
**A.** +

**Q.** What about the “syncitia formed, Day 7” value (HIV-1 NDK; 1 μM) of the same molecule?
**A.** ++

**Q.** And the “P 24” value (HIV-1 NDK; 1 μM)?
**A.** 3070 pg/mL and 2403 pg/mL

**Q.** And the “syncitia formed, Day 4” value (HIV-1 NDK; 5 μM)?
**A.** −

**Q.** What about the “syncitia formed, Day 5” value (HIV-1 NDK; 5 μM) of the same molecule?
**A.** −

**Q.** And the “syncitia formed, Day 6” value (HIV-1 NDK; 5 μM)?
**A.** −

**Q.** What about the “syncitia formed, Day 7” value (HIV-1 NDK; 5 μM) of the same molecule?
**A.** +

**Q.** What about the “P 24” value (HIV-1 NDK; 5 μM) of the same molecule?
**A.** 2726 pg/mL and 2070 pg/mL

**Q.** What about the pIC50 (HIV-1 NDK; HIV 1 NDK, Table 10) of the same molecule?
**A.** 7.40

**Q.** What about the IC100 (HIV-1 NDK; HIV 1 NDK, Table 10) of the same molecule?
**A.** >5 µM

**Q.** What about the “Day 4 syncitia formed” value (HIV-1 NL 4-3; 0.005 μM) of the same molecule?
**A.** −

**Q.** And the “Day 5 syncitia formed” value (HIV-1 NL 4-3; 0.005 μM)?
**A.** +

**Q.** What about the “Day 6 syncitia formed” value (HIV-1 NL 4-3; 0.005 μM) of the same molecule?
**A.** ++

**Q.** And the “syncitia formed, Day 4” value (HIV-1 NL 4-3; 0.01 μM)?
**A.** −

**Q.** What about the “syncitia formed, Day 5” value (HIV-1 NL 4-3; 0.01 μM) of the same molecule?
**A.** +

**Q.** And the “syncitia formed, Day 6” value (HIV-1 NL 4-3; 0.01 μM)?
**A.** ++

**Q.** What about the “Day 4 syncitia formed” value (HIV-1 NL 4-3; 0.01 μM) of the same molecule?
**A.** −

**Q.** And the “Day 5 syncitia formed” value (HIV-1 NL 4-3; 0.01 μM)?
**A.** +

**Q.** And the “Day 6 syncitia formed” value (HIV-1 NL 4-3; 0.01 μM)?
**A.** ++

**Q.** And the “syncitia formed, Day 4” value (HIV-1 NL 4-3; 0.05 μM)?
**A.** −

**Q.** And the “syncitia formed, Day 5” value (HIV-1 NL 4-3; 0.05 μM)?
**A.** (+)

**Q.** And the “syncitia formed, Day 6” value (HIV-1 NL 4-3; 0.05 μM)?
**A.** +

**Q.** What about the “syncitia formed, Day 7” value (HIV-1 NL 4-3; 0.05 μM) of the same molecule?
**A.** ++

**Q.** What about the “Day 4 syncitia formed” value (HIV-1 NL 4-3; 0.05 μM) of the same molecule?
**A.** −

**Q.** And the “Day 5 syncitia formed” value (HIV-1 NL 4-3; 0.05 μM)?
**A.** (+)

**Q.** What about the “Day 6 syncitia formed” value (HIV-1 NL 4-3; 0.05 μM) of the same molecule?
**A.** +

**Q.** What about the “Day 7 syncitia formed” value (HIV-1 NL 4-3; 0.05 μM) of the same molecule?
**A.** ++

**Q.** And the “syncitia formed, Day 4” value (HIV-1 NL 4-3; 0.1 μM)?
**A.** −

**Q.** What about the “syncitia formed, Day 5” value (HIV-1 NL 4-3; 0.1 μM) of the same molecule?
**A.** (+)

**Q.** What about the “syncitia formed, Day 6” value (HIV-1 NL 4-3; 0.1 μM) of the same molecule?
**A.** +

**Q.** And the “syncitia formed, Day 7” value (HIV-1 NL 4-3; 0.1 μM)?
**A.** + and ++

**Q.** What about the “Day 4 syncitia formed” value (HIV-1 NL 4-3; 0.1 μM) of the same molecule?
**A.** −

**Q.** What about the “Day 5 syncitia formed” value (HIV-1 NL 4-3; 0.1 μM) of the same molecule?
**A.** (+)

**Q.** What about the “Day 6 syncitia formed” value (HIV-1 NL 4-3; 0.1 μM) of the same molecule?
**A.** +

**Q.** And the “Day 7 syncitia formed” value (HIV-1 NL 4-3; 0.1 μM)?
**A.** +

**Q.** What about the “syncitia formed, Day 4” value (HIV-1 NL 4-3; 0.5 μM) of the same molecule?
**A.** −

**Q.** And the “syncitia formed, Day 5” value (HIV-1 NL 4-3; 0.5 μM)?
**A.** −

**Q.** And the “syncitia formed, Day 6” value (HIV-1 NL 4-3; 0.5 μM)?
**A.** −

**Q.** What about the “syncitia formed, Day 7” value (HIV-1 NL 4-3; 0.5 μM) of the same molecule?
**A.** +

**Q.** And the “Day 4 syncitia formed” value (HIV-1 NL 4-3; 0.5 μM)?
**A.** −

**Q.** What about the “Day 5 syncitia formed” value (HIV-1 NL 4-3; 0.5 μM) of the same molecule?
**A.** −

**Q.** And the “Day 6 syncitia formed” value (HIV-1 NL 4-3; 0.5 μM)?
**A.** −

**Q.** What about the “Day 7 syncitia formed” value (HIV-1 NL 4-3; 0.5 μM) of the same molecule?
**A.** −

**Q.** And the “syncitia formed, Day 4” value (HIV-1 NL 4-3; 1 μM)?
**A.** −

**Q.** What about the “syncitia formed, Day 5” value (HIV-1 NL 4-3; 1 μM) of the same molecule?
**A.** −

**Q.** And the “syncitia formed, Day 6” value (HIV-1 NL 4-3; 1 μM)?
**A.** −

**Q.** What about the “syncitia formed, Day 7” value (HIV-1 NL 4-3; 1 μM) of the same molecule?
**A.** (+)

**Q.** What about the “Day 4 syncitia formed” value (HIV-1 NL 4-3; 1 μM) of the same molecule?
**A.** −

**Q.** What about the “Day 5 syncitia formed” value (HIV-1 NL 4-3; 1 μM) of the same molecule?
**A.** −

**Q.** And the “Day 6 syncitia formed” value (HIV-1 NL 4-3; 1 μM)?
**A.** −

**Q.** And the “Day 7 syncitia formed” value (HIV-1 NL 4-3; 1 μM)?
**A.** −

**Q.** What about the “syncitia formed, Day 4” value (HIV-1 NL 4-3; 5 μM) of the same molecule?
**A.** −

**Q.** And the “syncitia formed, Day 5” value (HIV-1 NL 4-3; 5 μM)?
**A.** −

**Q.** What about the “syncitia formed, Day 6” value (HIV-1 NL 4-3; 5 μM) of the same molecule?
**A.** −

**Q.** What about the “syncitia formed, Day 7” value (HIV-1 NL 4-3; 5 μM) of the same molecule?
**A.** (+)

**Q.** What about the “Day 4 syncitia formed” value (HIV-1 NL 4-3; 5 μM) of the same molecule?
**A.** −

**Q.** What about the “Day 5 syncitia formed” value (HIV-1 NL 4-3; 5 μM) of the same molecule?
**A.** −

**Q.** And the “Day 6 syncitia formed” value (HIV-1 NL 4-3; 5 μM)?
**A.** −

**Q.** What about the “Day 7 syncitia formed” value (HIV-1 NL 4-3; 5 μM) of the same molecule?
**A.** −

**Q.** What about the pIC50 (HIV-1 NL 4-3; Table 9, two lines = tested twice, 8 days apart) of the same molecule?
**A.** 7.52 and 7.70
